Reference: paper PMC10517994, “Structural basis for calcium-stimulating pore formation of Vibrio α-hemolysin” (2023)

What was measured:
[1] = molecular target: mature VcαHL H415A (Vibrio campbellii); assay: negative-stain TEM
[2] = molecular target: mature VcαHL H422A (Vibrio campbellii); assay: negative-stain TEM
[3] = molecular target: mature Vibrio campbellii α-hemolysin (mature VcαHL), wild type (Vibrio campbellii); assay: negative-stain TEM
[4] = molecular target: mature Vibrio campbellii α-hemolysin (mature VcαHL), wild type (Vibrio campbellii); assay: cryo-EM structure

## mature VcαHL H415A (natural protein)
[1]
  stoichiometry N: 7

## mature VcαHL H422A (natural protein)
[2]
  stoichiometry N: 7

## mature Vibrio campbellii α-hemolysin (mature VcαHL), wild type (natural protein)
[3]
  stoichiometry N: 7 and 3 and 6
[4]
  stoichiometry N: 7

“And” between values parts separate entries of the source, which are not always exact repeats. Equal entries are not always repeated.
